Measured values from several laboratories, pooled; numbers as filed in NIAID ChemDB.

Shared fields: growth or infection tests; species: Candida albicans

Blank or dashed fields: not listed here. Lines come from different laboratories, so protocols vary. ECn: concentration that inhibits the pathogen or its effect by n%. A number after MIC or MFC names an inhibition level or a share of isolates.

CCN(CC)C(=S)[S][Sn]([CH]1CCCCC1)([CH]1CCCCC1)[CH]1CCCCC1 ; endpoint: MIC ; strain: ATCC 18804 ; result: >250 µg/mL
Oc1cc2cc(c1O)Oc1ccc(cc1)CCc1ccc(O)c(O)c1Oc1cccc(c1)CC2 ; endpoint: MIC80 ; read by: broth dilution ; strain: BWP17-DPP3-GFP ; result: >64 µg/mL
C/C(=N\NC(=S)Nc1ccc(C(=O)NO)cc1)c1ccccc1 ; endpoint: MIC ; result: 3 µM
S=C([S][Sn]([CH]1CCCCC1)([CH]1CCCCC1)[CH]1CCCCC1)N1CCCC1 ; endpoint: MIC ; strain: Drug-resistant isolate ; result: 75 µg/mL
O=NC(=O)c1ccc(NC(=S)NNc2c(O)[nH]c3ccccc23)cc1 ; endpoint: MIC ; result: 1.44 µM
CN1C(=S)NC(C)(C)C1=S ; endpoint: MIC ; strain: CA10 ; result: >100 µg/mL
Nc1c(/C=N/NC(=O)c2ccncc2)cccc1CN1CCCC1 ; endpoint: MIC ; strain: MTCC 8184 ; result: 12.5 µg/mL
C[C@H]1[C@H](O)[C@@H](C)/C=C/C=C/C=C/C=C/C=C/C=C/C=C/[C@H](O[C@@H]2O[C@H](C)[C@@H](O)[C@H](N)[C@@H]2O)C[C@@H]2O[C@](O)(C[C@@H](O)C[C@@H](O)CC[C@H](O)[C@@H](O)C[C@@H](O)CC(=O)O[C@H]1C)C[C@H](O)[C@H]2C(=O)O ; endpoint: MIC ; read by: broth dilution ; result: 60 µg/mL
CCCN(CCC)Cc1cccc(/C=N/NC(=O)c2ccncc2)c1N ; endpoint: MIC ; strain: MTCC 8184 ; result: 50 µg/mL
COc1cc(/C=C/c2ccc(O)cc2)cc(OC)c1 ; endpoint: MIC95 ; read by: broth dilution ; strain: SC5314 ; result: 29 µg/mL
Oc1ccc2cc1Oc1cccc(c1)CCc1ccc(O)c(c1)Oc1ccc(cc1O)CC2 ; endpoint: MIC80 ; read by: broth dilution ; strain: BWP17-DPP3-GFP ; result: >64 µg/mL
O=C(O)c1ccc(NC(=S)N/N=C/c2ccc(OO)cc2)cc1 ; endpoint: MIC ; result: 3.08 µM
CC1OC(OC2C(O[C@H]3CC[C@@]4(C)C(CC[C@]5(C)C4CC=C4C6CC(C)(C)CC[C@]6(C(=O)O)CC[C@]45C)[C@]3(C)CO)OCC(O)C2O)C(O)C(OC2OCC(O)C(O)C2O)C1O ; endpoint: MIC ; strain: KCTC 1940 ; result: 25 µg/mL
CCN(CC)C(=S)[S][Sn]([S]C(=S)N(CC)CC)([c]1ccccc1)[c]1ccccc1 ; endpoint: MIC ; strain: Drug-resistant isolate ; result: 75 µg/mL
C[C@@H]1O[C@@H](OC2[C@H](O[C@H]3CC[C@@]4(C)[C@@H](CC[C@]5(C)[C@@H]4CC=C4[C@@H]6CC(C)(C)CC[C@]6(C(=O)O[C@@H]6O[C@H](COC7O[C@H](CO)[C@@H](O[C@@H]8O[C@@H](C)[C@H](O)[C@@H](O)[C@H]8O)[C@H](O)[C@H]7O)[C@@H](O)[C@H](O)[C@H]6O)CC[C@]45C)[C@]3(C)CO)OC[C@H](O)[C@@H]2O)[C@H](O)[C@H](O)[C@H]1O ; endpoint: MIC ; strain: KCTC 1940 ; result: >200 µg/mL
C/C(=N\NC(=S)Nc1ccc(C(=O)O)cc1)c1ccccc1 ; endpoint: MIC ; result: 3.1 µM
CC(=O)Oc1ccc(/C=C/c2cc(O)cc(OC(C)=O)c2)cc1 ; endpoint: MIC95 ; read by: broth dilution ; strain: SC5314 ; result: >300 µg/mL
Clc1ccc(COC(Cn2ccnc2)c2ccc(Cl)cc2Cl)c(Cl)c1 ; endpoint: MIC100 ; read by: broth dilution ; strain: LM 42V ; result: 32 µg/mL
CCC[CH2][Sn]([CH2]CCC)([S]C(=S)N1CCCC1)[S]C(=S)N1CCCC1 ; endpoint: MIC ; strain: ATCC 18804 ; result: 30 µg/mL
O=c1oc2ccccc2c(O)c1C(c1c(O)c2ccccc2oc1=O)c1c[nH]c2ccccc12 ; endpoint: MFC ; read by: agar diffusion / agar ; result: 100 µg/mL
Oc1ccc2cc1Oc1ccc(cc1)CCc1ccc(O)c(c1)Oc1ccc(cc1O)CC2 ; endpoint: MIC80 ; read by: broth dilution ; strain: BWP17-DPP3-GFP ; result: >64 µg/mL
COC(=O)C1=CC[C@@]23CC[C@@H]([C@@](C)(/C=C/C=C(\C)C(=O)O)OC2=O)[C@@]3(O)CC1 ; endpoint: MFC ; strain: ATCC 10231 ; result: 6.25 µg/mL
CCC(C)n1ncn(-c2ccc(N3CCN(c4ccc(OC[C@H]5CO[C@](Cn6cncn6)(c6ccc(Cl)cc6Cl)O5)cc4)CC3)cc2)c1=O ; endpoint: MIC ; strain: A28976 ; result: 16 µg/mL
CN1CCN(Cc2cccc(/C=N/NC(=O)c3ccncc3)c2N)CC1 ; endpoint: MIC ; strain: MTCC 8184 ; result: 12.5 µg/mL
C[C@@H]1[C@H](O)[C@@H](C)/C=C/C=C/C=C/C=C/C=C/C=C/C=C/[C@H](O[C@@H]2O[C@H](C)[C@@H](O)[C@H](N)[C@@H]2O)C[C@@H]2O[C@](O)(C[C@@H](O)C[C@@H](O)[C@H](O)CC[C@@H](O)C[C@@H](O)CC(=O)O[C@H]1C)C[C@H](O)[C@H]2C(=O)O ; endpoint: MIC ; read by: broth dilution ; strain: ATCC 10231 ; result: 0.15 µg/mL
CN1C(=O)C(=O)N(C)C1=S ; endpoint: MIC ; strain: CA10 ; result: >100 µg/mL
NC(=O)OC[C@H](O)[C@@H](O)[C@H](N)C(=O)N[C@H](C(=O)O)[C@H]1O[C@@H](n2cc(C(=O)O)c(=O)[nH]c2=O)[C@H](O)[C@@H]1O ; endpoint: EC50 ; strain: H317 ; result: 1000 µM
O=c1oc2ccccc2c(O)c1C(c1c(O)c2ccccc2oc1=O)c1coc2ccccc2c1=O ; endpoint: MFC ; read by: agar diffusion / agar ; result: 100 µg/mL
Oc1ccc2cc1Oc1ccc(cc1)CCc1ccc(O)c(c1)Oc1cccc(c1)CC2 ; endpoint: MIC80 ; read by: broth dilution ; strain: BWP17-DPP3-GFP ; result: >64 µg/mL
CC(=O)Oc1cc(/C=C/c2ccc(O)cc2)cc(OC(C)=O)c1 ; endpoint: MIC95 ; read by: broth dilution ; strain: SC5314 ; result: >300 µg/mL
CN(C)c1ccc(/C=N/NC(=S)Nc2ccc(C(=O)NO)cc2)cc1 ; endpoint: MIC ; result: 1.83 µM
Nc1c(/C=N/NC(=O)c2ccncc2)cccc1CN1CCOCC1 ; endpoint: MIC ; strain: MTCC 8184 ; result: 1.56 µg/mL
Cn1ccn(C)c1=[Se] ; endpoint: MIC ; strain: CA10 ; result: >100 µg/mL
COc1cc(C(=O)OCCc2ccc(O)cc2)ccc1O ; endpoint: MIC ; read by: broth dilution ; strain: ATCC 10231 ; result: 250 µg/mL
C[C@@H]1[C@H](O)[C@@H](C)/C=C/C=C/CC/C=C/C=C/C=C/C=C/C(O[C@H]2O[C@H](C)[C@@H](O)[C@H](N)[C@@H]2O)CC2O[C@](O)(CC(O)C(O)CCC(O)CC(O)CC(O)CC(=O)O[C@H]1C)CC(O)C2C(=O)O ; endpoint: MIC ; read by: broth dilution ; strain: MTCC 227 ; result: 100 µg/mL
CN(C)c1ccc(/C=N/NC(=S)Nc2ccc(C(=O)O)cc2)cc1 ; endpoint: MIC ; result: 1.34 µM
COc1ccc(/C=C/c2cc(OC)cc(OC)c2)cc1 ; endpoint: MIC95 ; read by: broth dilution ; strain: SC5314 ; result: >300 µg/mL
O=c1cc(-c2ccccc2)oc2cc(O)c(O)c(O)c12 ; endpoint: MIC ; strain: ATCC 64548 ; result: 13 µg/mL
COc1ccc2cc1Oc1ccc(cc1)CCc1ccc(OC)c(c1)Oc1ccc(cc1)CC2 ; endpoint: MIC80 ; read by: broth dilution ; strain: BWP17-DPP3-GFP ; result: >64 µg/mL
CN(C)Cc1cccc(/C=N/NC(=O)c2ccncc2)c1N ; endpoint: MIC ; strain: MTCC 8184 ; result: 25 µg/mL
Oc1ccc2cc1Oc1ccc(cc1)CCc1ccc(c(O)c1)-c1ccc(cc1O)CC2 ; endpoint: MIC80 ; read by: broth dilution ; strain: BWP17-DPP3-GFP ; result: 64 µg/mL
Oc1ccc([C@H]2c3c(O)cc(O)cc3C3c4c(cc(O)cc4C2O)O[C@@H]3c2ccc(O)cc2)cc1 ; endpoint: MIC95 ; read by: broth dilution ; strain: SC5314 ; result: >300 µg/mL
CCCCN(CCCC)Cc1cccc(/C=N/NC(=O)c2ccncc2)c1N ; endpoint: MIC ; strain: MTCC 8184 ; result: 3.12 µg/mL
O=C(O)c1ccc(NC(=S)N=Nc2c(O)[nH]c3ccccc23)cc1 ; endpoint: MIC ; result: 2.32 µM

The last 5 rows once more:

structure	endpoint	read by	strain	result
CN(C)Cc1cccc(/C=N/NC(=O)c2ccncc2)c1N	MIC		MTCC 8184	25 µg/mL
Oc1ccc2cc1Oc1ccc(cc1)CCc1ccc(c(O)c1)-c1ccc(cc1O)CC2	MIC80	broth dilution	BWP17-DPP3-GFP	64 µg/mL
Oc1ccc([C@H]2c3c(O)cc(O)cc3C3c4c(cc(O)cc4C2O)O[C@@H]3c2ccc(O)cc2)cc1	MIC95	broth dilution	SC5314	>300 µg/mL
CCCCN(CCCC)Cc1cccc(/C=N/NC(=O)c2ccncc2)c1N	MIC		MTCC 8184	3.12 µg/mL
O=C(O)c1ccc(NC(=S)N=Nc2c(O)[nH]c3ccccc23)cc1	MIC			2.32 µM